{"source": "patent US7867716B2", "about": "(priority 2004, dated 2011)", "key": {"αHL (M113N)7 pore [1]": {"target": "T1, αHL (M113N)7 pore (Staphylococcus aureus, UniProt P09616, M139N)", "conditions": "for association rate constant kon / dissociation rate constant koff: n=3"}, "WT1(M113N)6 pore": {"target": "WT1(M113N)6 pore (Staphylococcus aureus, UniProt P09616, M139N)"}, "αHL-(M113F/K147N)7 pore": {"target": "αHL-(M113F/K147N)7 pore (Staphylococcus aureus, UniProt P09616, K173N/M139F)"}, "αHL (M113N)7 pore [2]": {"target": "T1, αHL (M113N)7 pore", "conditions": "cited from earlier work"}, "αHL-(M113F/K147N)7·βCD": {"target": "αHL-(M113F/K147N)7·βCD (Staphylococcus aureus, UniProt P09616, K173N/M139F)"}, "[3]": {"conditions": "linear fit ln Kf versus 1/T, n=4"}}, "note": "Read-outs that look alike come from different tables or passages of the source."}
{"compound": "β-cyclodextrin", "values": [{"measurement": "Kf relative to interaction of WT-αHL with βCD", "setting": "αHL (M113N)7 pore [1]; 25° C.", "result": "> 10^4 fold"}, {"measurement": "formation constant Kf", "setting": "αHL (M113N)7 pore [1]; 25° C.", "result": "1.5e+07", "unit": "M⁻¹"}, {"measurement": "ΔG^≠ for association", "setting": "αHL (M113N)7 pore [1]; 25° C. (=7.7RT)", "result": 4.54, "unit": "kcal/mol"}, {"measurement": "ΔG^≠ for dissociation", "setting": "αHL (M113N)7 pore [1]; 25° C. (=24RT)", "result": 14.3, "unit": "kcal/mol"}, {"measurement": "association rate constant kon", "setting": "αHL (M113N)7 pore [1]; 25° C.", "result": "4.5±0.6×10^5 M^−1s^−1"}, {"measurement": "dissociation rate constant koff", "setting": "αHL (M113N)7 pore [1]; 25° C.", "result": "0.031 ± 0.01", "unit": "s⁻¹"}, {"measurement": "ΔG°", "setting": "αHL (M113N)7 pore [1]; 25° C., n=4", "result": "-9.8 ± 0.72", "unit": "kcal/mol"}, {"measurement": "mean duration of βCD binding events, τoff", "setting": "αHL (M113N)7 pore [1]; 31° C., −40 mV", "result": 14, "unit": "s"}, {"measurement": "ΔG^≠ for association", "setting": "αHL (M113N)7 pore [1]; 85° C. (=6.1RT)", "result": 3.59, "unit": "kcal/mol"}, {"measurement": "ΔG^≠ for dissociation", "setting": "αHL (M113N)7 pore [1]; 85° C. (=21RT)", "result": 12.7, "unit": "kcal/mol"}, {"measurement": "increase of koff over the value at 25° C.", "setting": "αHL (M113N)7 pore [1]; 85° C. vs 25° C.", "result": 800, "unit": "fold"}, {"measurement": "increase of kon over the value at 25° C.", "setting": "αHL (M113N)7 pore [1]; 85° C. vs 25° C.", "result": 15, "unit": "fold"}, {"measurement": "association rate constant kon", "setting": "αHL (M113N)7 pore [1]; 85° C.", "result": "6.5±0.8×10^6 M^−1 s^−1"}, {"measurement": "dissociation rate constant koff", "setting": "αHL (M113N)7 pore [1]; 85° C.", "result": "25.0±0.3", "unit": "S^−1"}, {"measurement": "ΔH°", "setting": "αHL (M113N)7 pore [1]; [3]", "result": "-14.3 ± 0.96", "unit": "kcal/mol"}, {"measurement": "ΔS°", "setting": "αHL (M113N)7 pore [1]; [3]", "result": "−62±5", "unit": "J mol^−1 K^−1"}, {"measurement": "ΔH^≠ for association", "setting": "αHL (M113N)7 pore [1]; φ=1 ns^−1", "result": 9.32, "unit": "kcal/mol"}, {"measurement": "ΔH^≠ for dissociation", "setting": "αHL (M113N)7 pore [1]; φ=1 ns^−1", "result": 23.7, "unit": "kcal/mol"}, {"measurement": "ΔS^≠ for association", "setting": "αHL (M113N)7 pore [1]; φ=1 ns^−1", "result": 66, "unit": "J mol^−1 K^−1"}, {"measurement": "ΔS^≠ for dissociation", "setting": "αHL (M113N)7 pore [1]; φ=1 ns^−1", "result": 130, "unit": "J mol^−1 K^−1"}, {"measurement": "ΔG° (as printed, second quantity of the sentence)", "setting": "WT1(M113N)6 pore", "result": "−33", "unit": "kJ mol^−1 K^−1"}, {"measurement": "ΔH°", "setting": "WT1(M113N)6 pore", "result": "-12.2 ± 0.48", "unit": "kcal/mol"}, {"measurement": "ΔG°", "setting": "WT1(M113N)6 pore; 25° C.", "result": "-7.89 ± 0.48", "unit": "kcal/mol"}, {"measurement": "Kf (trans)", "setting": "αHL-(M113F/K147N)7 pore; −40 mV, n=4", "result": "1.3±0.2×10^5 M^−1"}, {"measurement": "τoff of βCD (cis)", "setting": "αHL-(M113F/K147N)7 pore; −60 mV, n=3, βCD from cis side", "result": "7.0 ± 0.3", "unit": "s"}, {"measurement": "formation constant Kf (literature)", "setting": "αHL (M113N)7 pore [2]; literature, different sequence background for αHL, RL2", "result": "7.7e+06", "unit": "M⁻¹"}, {"measurement": "tighter binding of βCD by M113N mutant than by WT protein", "setting": "αHL (M113N)7 pore [2]; room temperature", "result": "> 10,000 fold"}]}
{"compound": "O=C(O)C12CC3CC(CC(C3)C1)C2", "values": [{"measurement": "Kf (Kf=kon/koff)", "setting": "αHL-(M113F/K147N)7·βCD; 22° C.", "result": "1.2±0.1×10^4 M^−1"}, {"measurement": "increase of koff", "setting": "αHL-(M113F/K147N)7·βCD; 22° C. to 78° C.", "result": 43, "unit": "fold"}, {"measurement": "increase of kon", "setting": "αHL-(M113F/K147N)7·βCD; 22° C. to 78° C.", "result": 6, "unit": "fold"}, {"measurement": "kon", "setting": "αHL-(M113F/K147N)7·βCD; 22° C., −60 mV, n=3", "result": "2.5±0.2×10^6 M^−1 s^−1"}, {"measurement": "ΔG°", "setting": "αHL-(M113F/K147N)7·βCD; 25° C., n=3", "result": "-5.5 ± 0.48", "unit": "kcal/mol"}, {"measurement": "Kf (Kf=kon/koff)", "setting": "αHL-(M113F/K147N)7·βCD; 78° C.", "result": "1.5±0.1×10^3 M^−1"}, {"measurement": "koff", "setting": "αHL-(M113F/K147N)7·βCD; 78° C., −60 mV, n=3", "result": "9.3±0.6×10^3 s^−1"}, {"measurement": "kon", "setting": "αHL-(M113F/K147N)7·βCD; 78° C., −60 mV, n=3", "result": "1.4±0.1×10^7 M^−1 s^−1"}, {"measurement": "ΔH°", "setting": "αHL-(M113F/K147N)7·βCD; plot of ln Kf versus 1/T, n=3", "result": "-7.41 ± 0.48", "unit": "kcal/mol"}, {"measurement": "ΔS°", "setting": "αHL-(M113F/K147N)7·βCD; plot of ln Kf versus 1/T, n=3", "result": "−28±1", "unit": "J mol^−1 K^−1"}]}
